Experimental data: PubChem BioAssay AID504761 (Drosophila RNAi Screening Center, 2011)

- Screen: 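Genome-wide fly cell screen for genes dengue virus requires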 (primary screen)
- Cells: D.Mel-2 cells from Drosophila
- Reagents: long dsRNA against Drosophila genes
- Challenge: infection with dengue virus type 2; dose and infection time not stated
- Measured: 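Per well on two replicate plates, imaging gave the percent of cells positive for viral envelope protein, ranked by infection, and a nuclear count of cells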
- Scale: infection score: higher = more virus-infected cells
- Rule for the call: 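Very low infection ranking in both replicate wells (chance probability at most 0.065), then a retest showing infection dropped 1.5-fold or more at p below 0.05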
- Calls: active = confirmed: knock-down lowers infection; inactive = not picked or not confirmed
In all, the deposit lists about 22,000 reagents; this is a random part of those that have a named target and a result. In the full data, 116 (0.52%) were called active. 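Calls depend on retest data that are not deposited; infection was ranked per plate without normalising between plates; the unit of the infection score is not given.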 Further read-outs or replicates are left out here. The record does not give: the amount of reagent, the time to read-out.

Ir94d [DRSC21568] showed infection score, replicate 1 = 2.54; inactive.
For CNT1 [DRSC06082], the entry reads infection score, replicate 1 = 12.5; inactive.
With knock-down of CNT1 [DRSC29671], the screen gave infection score, replicate 1 = 0.22; inactive.
For mthl3 [DRSC06997] the deposit lists infection score, replicate 1 = 14.6; inactive.
Silencing of mthl3 [DRSC24927] resulted in: infection score, replicate 1 = 4.32; inactive.
For Dp1 [DRSC07403], the entry reads infection score, replicate 1 = 4.21; inactive.
Knock-down of BomS4 [DRSC22509] resulted in: infection score, replicate 1 = 1.18; inactive.
For bchs [DRSC03126], the values are infection score, replicate 1 = 0.66; inactive.
After knock-down of CG31805 [DRSC01563] the results were infection score, replicate 1 = 7.11; inactive.
Depletion of AANATL2 [DRSC03227] resulted in: infection score, replicate 1 = 0.33; inactive.
Against AANATL2 [DRSC26485] the deposit lists infection score, replicate 1 = 3.48; inactive.
CG14492 [DRSC06463] showed infection score, replicate 1 = 15.1; inactive.
After knock-down of Lrp4 [DRSC20118], the screen gave infection score, replicate 1 = 4.76; inactive.
For Ir56c [DRSC06544], the values are infection score, replicate 1 = 2.66; inactive.
Knock-down of Ir56c [DRSC26227] gave: infection score, replicate 1 = 0.55; active.
Depletion of CG32603 [DRSC19409] resulted in: infection score, replicate 1 = 1.84; inactive.
CG32603 [DRSC21586] gave infection score, replicate 1 = 14.5; inactive.
CG32603 [DRSC25240] showed infection score, replicate 1 = 11.5; inactive.
Dg [DRSC06718] gave infection score, replicate 1 = 15.7; inactive.
Silencing of CG12362 [DRSC09884] gave: infection score, replicate 1 = 0.53; inactive.
CG14834 [DRSC10204] gave infection score, replicate 1 = 2.28; inactive.
CG14834 [DRSC28202] scored infection score, replicate 1 = 6.75; inactive.

Copied from the list:
Value for AANATL2 [DRSC03227] in “infection score, replicate 1”: 0.33
CG32603 [DRSC25240], infection score, replicate 1 → 11.5
